{"source": "paper PMC8358046", "assay": "Lung pathology of uninfected (PBS) control mice given oseltamivir", "settings": "PBS instead of virus; 20 mg/kg/day oseltamivir phosphate by gavage 0 to 4 dpi", "data": [{"smiles": "CCOC(=O)C1=C[C@@H](OC(CC)CC)[C@H](NC(C)=O)[C@@H](N)C1", "values": [{"measurement": "Pathological changes in lung tissue of uninfected mice", "value": "no obvious pathological changes in the lung tissue of mice"}]}]}
